4 compounds from article PMC5610748, “Evaluation of Novel α-(Acyloxy)-α-(Quinolin-4-yl) Acetamides as Antiplasmodial Agents” (Iranian Journal of Pharmaceutical Research : IJPR, 2017) can be followed below.

Molecules are shown by their SMILES.

The subject of this data set is human hepatocellular carcinoma cell line (HepG2). In words: In-vitro cytotoxicity assay (MTT). It is filed as cell-based. The following applies: selectivity index: ratio of the HepG2 toxicity to the antiplasmodial activity. On the procedure:
In drug discovery approaches against malaria, one of the important strategies is the safety of active compounds against human. So, the toxicity of active compounds against P. falciparum was assessed on human hepatocellular carcinoma cell line (HepG2) by using MTT (3-[4,5-dimethylthiazol-2-yl] -2,5 diphenyl tetrazolium bromide) assay ([16]-[17]). The cells were cultured in RPMI 1640 medium enriched with 10% FBS (Fetal Bovine Serum) and incubated at 37 °C with 5% CO2 and 96% humidity. After several subcultures, cells were distributed in 96-well plates at 4,000 cells in 100 µL of culture medium and incubated for 24 h at the same condition to allow attachment of cells to the bottom of wells. Then culture medium removed and 100 µL of two-fold serially diluted concentrations of drug (400-1.56 µg/mL) added to each well in triplicate. Microtiter plates further incubated for 24 h in the same condition. Culture medium without drug was used as negative control. After the incubation time, the drug containing medium discharged and for evaluation of cell survival, 25 µL of MTT solution (4 mg/mL in PBS) added to each well and plates incubated for 3 h (in same condition). Then 100 µL of DMSO added to each well and plates were gently shaken to dissolve the formed formazan crystals. The absorbance of each well measured at 540 nm using an ELISA plate reader (Infinite M200, Tecan). The GI% (Growth Inhibition percent) was calculated using the formula Growth Inhibition% = 100 – […], where ODtest is the mean absorbance of treated cells and ODcontrol is the mean absorbance of a negative control. The cell survival of control assumed 100% and IC50 values generated from dose-response curves for each cell line.
On to `CC(C)(C)c1ccc(C(=O)OC(C(=O)NC2CCCCC2)c2ccnc3ccccc23)cc1` (stereo not shown) [Compound 2], for which the SI is listed as 72.33.
Turning to `Cc1cccc(C)c1NC(=O)C(OC(=O)c1ccc(C(C)(C)C)cc1)c1ccnc2ccccc12` (stereo not shown) [Compound 20], the SI is 144.98.
As to `Cc1cccc(C)c1NC(=O)C(OC(=O)c1cccc2ccccc12)c1ccnc2ccccc12` (stereo not shown) [Compound 22], the SI was determined as 191.90.
Under `O=C(OC(C(=O)NC1CCCCC1)c1ccnc2ccccc12)c1ccccc1` (stereo not shown) [Compound 1] stands 152.17.
